The structures appear in SMILES notation. Where “and” joins values, the source holds several entries; their conditions need not be identical. Equal values may be shown once.

Here are results for three compounds from PMC10891539, “Plant Extracts and Phytochemicals from the Asteraceae Family with Antiviral Properties” (Molecules, 2024).

The test system of this data set is DENV-2. Nature of the data set: Antiviral activity, virus yield inhibition assay (plaque assay) against DENV-2 in Vero cells. Conditions: pure phytochemicals; selectivity index: ratio CC50/EC50. Type of data set: cell-based, dengue virus (DENV-2 strain NGC). How it is done:
Figure 3 Antiviral activity of dichloromethane (A) and methanolic extracts (B) and against DENV-2 in Vero cells. Cells were infected with DENV-2 (m.o.i. 0.1 PFU/cell) and, after 1 h adsorption at 37 °C, were treated with medium containing different dilutions of the dichloromethane extracts or vehicle. After 48h of infection, viral yield was determined via plaque assay. […] Results are expressed as the mean values ± standard deviation (SD).
Figure 4 Antiviral activity of pure compounds against DENV-2 in Vero cells. Cells were infected with DENV-2 (m.o.i. 0.1 PFU/cell) and, after 1 h adsorption at 37 °C, were treated with medium containing different dilutions of the pure compounds or vehicle (dimethyl sulfoxide). After 48 h of infection, viral yield was determined via plaque assay. Results are expressed as the mean values ± standard deviation (SD).
Vero (African green monkey kidney, ATCC CCL-81) cells were grown in Eagle’s minimum essential medium (MEM, Gibco™ Thermo Fisher Scientific, Waltham, MA, USA) supplemented with 5% heat-inactivated newborn bovine serum (NBS, Gibco™ Thermo Fisher Scientific, Carlsbad, CA, USA) and 1.5 g/L of sodium bicarbonate in a 5% CO2 atmosphere. For the maintenance medium (MM), the serum concentration was reduced to 1.5%. The C6/36 HT mosquito cell line from Aedes albopictus (ATCC CRL-1660), adapted to grow at 33 °C, was cultured in L-15 Medium (Leibovitz) supplemented with 0.3% tryptose phosphate broth, 0.02% glutamine, 1% MEM non-essential amino acids solution, and 5% FBS. The original stock of DENV-2 strain NGC was prepared in C6/36 cells and titrated via plaque formation in Vero cells.
Antiviral activity was evaluated with a virus yield inhibition assay. […] The concentration of the solvent used for the control was the maximum present in the highest concentration of the extract or compound evaluated. […] Finally, cell monolayers were fixed with 10% formaldehyde, washed, and stained with a 1% solution of crystal violet, and PFU were counted. […]
Consider `C=C1C(=O)O[C@@H]2/C=C(\C)[C@@H](O)C/C=C(\C)C[C@@H](OC(=O)/C(=C/CO)COC(C)=O)[C@@H]12` [Compound 7, santhemoidin C], for which the SI was 6.7 and 6.74. In the case of `C=C1CC[C@H]2C(=C)C(=O)O[C@@H]2[C@H]2C(C)=CC(=O)[C@@H]12` [Compound 6, 2-oxo-8-deoxyligustrin] it was 5.9 and 5.86; in that of `C=C(C)c1cc2cc(C(C)=O)c(O)cc2o1` [Compound 8, euparin], more than 73.4.
